From PubChem BioAssay AID588726 (The Scripps Research Institute Molecular Screening Center, 2011) come the findings set out here.

Protein sequences, listed by entry. Tags and fused reporters are not part of them.
UniProt P9WQA3, whole entry: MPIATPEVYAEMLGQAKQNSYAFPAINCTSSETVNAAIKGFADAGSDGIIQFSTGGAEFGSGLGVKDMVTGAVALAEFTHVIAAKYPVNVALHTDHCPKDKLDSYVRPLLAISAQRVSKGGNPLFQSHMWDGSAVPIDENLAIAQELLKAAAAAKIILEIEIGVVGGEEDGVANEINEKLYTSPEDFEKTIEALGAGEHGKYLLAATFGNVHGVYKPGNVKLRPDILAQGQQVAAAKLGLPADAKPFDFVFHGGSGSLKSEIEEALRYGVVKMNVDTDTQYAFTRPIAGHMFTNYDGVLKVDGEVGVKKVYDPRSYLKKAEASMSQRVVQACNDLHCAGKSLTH

This is a selection; strong and weak results do not stand in their true shares. Some structures show a salt or complex split into parts, the way the source records it. Active and inactive are the calls of the source. No stated cut-off is given here; in the data, active means inhibition above about 27%; inactive means the rest.

What is called inhibition is the drop in the measured response relative to a control, in per cent.

This experiment deals with Fructose-bisphosphate aldolase (Mycobacterium tuberculosis (strain ATCC 25618 / H37Rv)) (UniProt P9WQA3). Description: M. tuberculosis aldolase activity blockers – biochemical, fluorescence, strain H37Rv, primary screen (AID 588726).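 Further: 0% = vehicle and 100% = reference inhibitor.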 As to conditions: purified M. tuberculosis FBA, fluorescence read-out; at 1 µM; hits give high values.
Consider `CP(=O)(Nc1ccc(SC(F)(F)F)cc1)Oc1ccccc1` (stereo not given), for which the inhibition was inactive: -0.42%.
Consider `CCCOc1ccc(NP(C)(=O)Oc2ccc(Cl)cc2)cc1` (stereo not given), for which the inhibition is inactive: 0.31%.
Turning to `COc1ccccc1OP(C)(=O)Nc1c(C)cccc1C` (stereo not given), the inhibition is inactive: -3.47%.
Turning to `CN1CCCCC1COC(=O)C1(O)c2ccccc2CCc2ccccc21` (stereo not given), the inhibition is inactive: 1.26%.
For `CCOC(=O)C(CC)C1=NC(C)(C)Cc2ccccc21.O=[N+]([O-])c1cc([N+](=O)[O-])c(O)c([N+](=O)[O-])c1` (stereo not given), the inhibition was inactive: -17.7%.
For `O=[N+]([O-])c1cc([N+](=O)[O-])c(Nc2nnnn2CCO)c([N+](=O)[O-])c1`, the inhibition is inactive: -10.7%.
On to `CC1=C2N=C(C=C3N=C(C(C)=C4[N-][C@@](C)([C@@H]5N=C1[C@](C)(CCC(=O)NC[C@@H](C)OP(=O)([O-])O[C@H]1[C@@H](O)[C@@H](n6cnc7cc(C)c(C)cc76)O[C@@H]1CO)[C@H]5CC(N)=O)[C@@](C)(CC(N)=O)[C@@H]4CCC(N)=O)[C@@](C)(CC(N)=O)[C@@H]3CCC(N)=O)C(C)(C)[C@@H]2CCC(N)=O.[C-]#N.[Co+3]`, for which the inhibition was inactive: -4.85%.
As to `Cc1nc2ccc3ccccc3c2s1.O=[N+]([O-])c1cc([N+](=O)[O-])c(O)c([N+](=O)[O-])c1`, the inhibition is inactive: -22.6%.
For the compound `O=[N+]([O-])c1cc([N+](=O)[O-])c(-c2cnn(-c3ccccc3)c2)c([N+](=O)[O-])c1`, the inhibition is inactive: -2.57%.
For the compound `CN(Cc1cccnc1)C(=O)COc1ccc(Cl)c(Cl)c1.O=[N+]([O-])c1cc([N+](=O)[O-])c(O)c([N+](=O)[O-])c1`, the inhibition is inactive: -11.4%.
On to `O=[N+]([O-])c1cc([N+](=O)[O-])c(-n2nnc3ccccc32)c([N+](=O)[O-])c1`, for which the inhibition was inactive: -2.4%.
For `CP(=O)(Nc1cccc(Br)c1)Oc1ccccc1` (stereo not given), the inhibition is inactive: 1.98%.
The value for `Cc1cc(C)cc(OP(C)(=O)Nc2ccccn2)c1` (stereo not given) was inactive: 1.8%; that for `Cc1ccc(C)c(NP(C)(=O)Oc2ccccc2)c1` (stereo not given) was inactive: 0.22%.
Consider `Cc1cc(C)cc(OP(C)(=O)Nc2ccc(C)cc2C)c1` (stereo not given), for which the inhibition is inactive: -3.1%.
Consider `CCOC(=O)c1ccc(NP(C)(=O)Oc2cc(C)cc(C)c2)cc1` (stereo not given), for which the inhibition is inactive: -2.35%.
In the case of `COc1ccccc1OP(C)(=O)Nc1cccc(Br)c1` (stereo not given), the inhibition was inactive: 1.41%.
`CC1=NCCc2c1[nH]c1ccccc21.O=[N+]([O-])c1cc([N+](=O)[O-])c(O)c([N+](=O)[O-])c1`: the inhibition was inactive: -1.99%.
The value for `O=C(O)c1cccc(Nc2c([N+](=O)[O-])cc([N+](=O)[O-])cc2[N+](=O)[O-])c1` was inactive: -10.8%; that for `COc1ccc(OP(C)(=O)Nc2cccc(F)c2)cc1` (stereo not given) was inactive: -2.59%.
As to `COc1ccccc1OP(C)(=O)Nc1cc(Cl)ccc1C` (stereo not given), the inhibition was inactive: 0.52%.
On to `Cc1cc(C)cc(OP(C)(N)=O)c1` (stereo not given), for which the inhibition is inactive: 2.64%.
As for `CCOC(=O)c1ccc(NP(C)(=O)Oc2ccccc2)cc1` (stereo not given), the inhibition is inactive: -0.03%.
As to `Cc1ccc(NP(C)(=O)Oc2ccccc2)c(C)c1` (stereo not given), the inhibition is inactive: 0.64%.
On to `COc1ccccc1OP(C)(=O)Nc1ccc(C)cc1` (stereo not given), for which the inhibition is inactive: 0.76%.
Turning to `Cc1cccc(C)c1OP(C)(N)=O` (stereo not given), the inhibition was inactive: 0.49%.
On to `CC(C)(C)c1ccc(OP(C)(=O)Nc2ccc(SC(F)(F)F)cc2)cc1` (stereo not given), for which the inhibition was inactive: -2.15%.
Consider `O=[N+]([O-])c1ccc2c(c1)C=Nc1ccccc1O2`, for which the inhibition was inactive: -7.67%.
Regarding `O=[N+]([O-])c1cc([N+](=O)[O-])c(Nc2cccnc2)c([N+](=O)[O-])c1`, the inhibition was inactive: -3.52%.
Turning to `CCN(CC)CCCOC(=O)C(O)(c1ccccc1)c1ccccc1`, the inhibition is inactive: 3.58%.
For `CP(=O)(Nc1ccccn1)Oc1ccc(Cl)cc1` (stereo not given), the inhibition is inactive: 0.8%.
With `CCOP(C)(=S)SCC(=O)NC(C)C(=O)O` (stereo not given), the inhibition is inactive: -1.83%.
With `CCOC(=O)c1ccc(NP(C)(=O)Oc2ccc(OC)cc2)cc1` (stereo not given), the inhibition was inactive: -1.19%.
Next, `O=[N+]([O-])c1cc([N+](=O)[O-])c(O)c([N+](=O)[O-])c1.c1ccc(Oc2ccncc2)cc1`: inactive: -1.48%.
As for `Cc1cc(C)cc(OP(C)(=O)Nc2ccc(SC(F)(F)F)cc2)c1` (stereo not given), the inhibition was inactive: 3.11%.
Next, `CCc1ccc(OP(C)(=O)N2CCN(c3ccc([N+](=O)[O-])cc3)CC2)cc1` (stereo not given): inactive: -6.31%.
Consider `CP(=O)(NC(=O)Nc1ccccc1)Oc1ccccc1` (stereo not given), for which the inhibition was inactive: 0.64%.
The value for `CP(=O)(Oc1ccccc1)OC(c1ccccc1)C(F)(F)F` (stereo not given) was inactive: -2.8%; that for `Cc1cccc(C)c1OP(C)(=O)Nc1ccc(SC(F)(F)F)cc1` (stereo not given) was inactive: 3.61%.
For the compound `Cc1ccc(Nc2c([N+](=O)[O-])cc([N+](=O)[O-])cc2[N+](=O)[O-])cc1`, the inhibition is inactive: -6.04%.
As to `CP(=O)(Nc1ccc(SC(F)(F)F)cc1)Oc1ccc(Cl)cc1` (stereo not given), the inhibition was inactive: -4.92%.
For the compound `COc1ccccc1OP(C)(=O)Nc1ccccc1` (stereo not given), the inhibition is inactive: 0.69%.
Next, `CP(=O)(Nc1ccccc1Br)Oc1ccccc1` (stereo not given): inactive: -1.04%; `CP(=S)(Nn1cnnc1)Oc1ccccc1` (stereo not given): inactive: 3.42%; `CP(=O)(OC12CC3CC(CC(C3)C1)C2)OC12CC3CC(CC(C3)C1)C2`: inactive: 0.77%.
Turning to `CCOC(=O)c1ccc(NP(C)(=O)Oc2ccc(Cl)cc2)cc1` (stereo not given), the inhibition was inactive: 3.01%.
Next, `CN(C)C(=O)c1c([N+](=O)[O-])cc([N+](=O)[O-])cc1[N+](=O)[O-]`: inactive: 0.12%.
Regarding `CP(=O)(Nc1ccc(Cl)cc1)Oc1ccc(F)cc1` (stereo not given), the inhibition is inactive: 0.45%.
For the compound `CC(C)(C)c1ccc(OP(C)(=O)O)cc1`, the inhibition is inactive: 2.13%.
With `COc1ccccc1OP(C)(=O)Nc1ccccc1Br` (stereo not given), the inhibition was inactive: 3.65%.
Next, `CCc1ccc(OP(C)(=O)Nc2cccnc2)cc1` (stereo not given): inactive: 3.57%; `CP(=O)(Oc1ccccc1)N1CCOC1=O` (stereo not given): inactive: -0.12%; `O=C(OCCCN1CCCC1)C(O)(c1ccccc1)C1CCCCC1` (stereo not given): inactive: 0.79%.
As to `COc1ccccc1OP(C)(=O)Nc1c(C)n(C)n(-c2ccccc2)c1=O` (stereo not given), the inhibition was inactive: -1.7%.
Consider `COc1ccc(OP(C)(=O)Nc2ccc(Br)cc2)cc1` (stereo not given), for which the inhibition is inactive: 1.11%.
As for `CCN(CC)CC(O)COC(=O)C(O)(c1ccccc1)C1CCCCC1` (stereo not given), the inhibition is inactive: 2.18%.
`CCc1ccc(OP(C)(=O)O)cc1`: the inhibition was inactive: -1.45%.
In the case of `COc1ccccc1OP(C)(=O)Nc1ccc(C)cc1C` (stereo not given), the inhibition was inactive: 1.24%.
`CP(=O)(Nc1ccccn1)Oc1ccccc1` (stereo not given): the inhibition was inactive: 1.93%.
With `O=[N+]([O-])c1cc([N+](=O)[O-])c(Nc2ccccn2)c([N+](=O)[O-])c1`, the inhibition was inactive: -8.75%.
Next, `Cc1c(NP(C)(=O)Oc2ccc(C(C)C)cc2)c(=O)n(-c2ccccc2)n1C` (stereo not given): inactive: -0.97%; `CN(C)CCOC(=O)C(O)(c1ccccc1)C1CCCC1` (stereo not given): inactive: -1.13%.
Next, `COc1ccc(OP(C)(=O)Nc2ccccn2)cc1` (stereo not given): inactive: -0.78%; `COc1ccccc1OP(C)(=O)Nc1ccc(Br)cc1` (stereo not given): inactive: 0.97%.
The value for `CP(=O)(OCCOc1ccccc1)OCCOc1ccccc1` was inactive: 3.25%; that for `CP(=O)(Nc1ccc(Cl)cc1Cl)Oc1ccccc1` (stereo not given) was inactive: 0.07%; that for `CCCCCCCCCCCCCCCC1C[N+](C)(C)CCOP(C)(=O)O1` (stereo not given) was inactive: 1.46%.
Turning to `COc1ccc(OP(C)(=O)Nc2ccccc2Br)cc1` (stereo not given), the inhibition is inactive: 0.43%.
`COc1ccccc1OP(C)(=O)Nc1ccc(C)c(C)c1` (stereo not given): the inhibition is inactive: 0.14%.
As for `Cc1cc(C)cc(OP(C)(=O)Nc2cccc(C(F)(F)F)c2)c1` (stereo not given), the inhibition was inactive: 1.63%.
`O=C1C(O)=C([N+](=O)[O-])C(=O)C(O)=C1[N+](=O)[O-]`: the inhibition is inactive: -2.34%.
As to `O=[N+]([O-])c1cc([N+](=O)[O-])c(OC2CCCCC2O)c([N+](=O)[O-])c1` (stereo not given), the inhibition is inactive: -7.86%.
The value for `CCCCCOc1ccc(NP(C)(=O)Oc2ccc(Cl)cc2Cl)cc1` (stereo not given) was inactive: -2.43%; that for `CP(=O)(Nc1ccccc1)Oc1ccc(F)cc1` (stereo not given) was inactive: 0.36%; that for `CCN(CC)CCCOC(=O)C(O)(c1ccccc1)C1CCCCC1` (stereo not given) was inactive: 1.19%.
As to `Cc1c([N+](=O)[O-])cc([N+](=O)[O-])c(Br)c1[N+](=O)[O-]`, the inhibition was inactive: -3.45%.
Turning to `COc1ccc(OP(C)(=O)Nc2ccc(SC(F)(F)F)cc2)cc1` (stereo not given), the inhibition was inactive: -3.47%.
For `CCOC(=O)c1ccc(NP(C)(=O)Oc2ccc(F)cc2)cc1` (stereo not given), the inhibition is inactive: 0.98%.
The value for `COc1ccc2c(c1O)-c1c(O)c(OC)cc3c1[C@H](C2)[N+](C)(C)CC3.O=[N+]([O-])c1cc([N+](=O)[O-])c([O-])c([N+](=O)[O-])c1[O-]` was active: 52%; that for `O=C(OCCN1CCN(CCOCc2ccccc2)CC1)C(O)(c1ccccc1)c1ccccc1` was inactive: -3.3%; that for `O=C(OC1CN2CCC1CC2)c1ccc([N+](=O)[O-])cc1` (stereo not given) was inactive: 0.9%.
For the compound `CC(C)c1ccc(OP(C)(=O)Nc2ccc(SC(F)(F)F)cc2)cc1` (stereo not given), the inhibition was inactive: -2.2%.
In the case of `CP(=O)(Nc1ccccc1F)Oc1ccccc1` (stereo not given), the inhibition is inactive: 3.31%.
As for `O=[N+]([O-])c1cc([N+](=O)[O-])c(Nc2ccc(Cl)cc2)c([N+](=O)[O-])c1`, the inhibition was inactive: -6.45%.
Turning to `Cc1ccccc1NP(C)(=O)Nc1ccccc1C`, the inhibition is inactive: 1.95%.
Consider `CP(=O)(Nc1ccc2c(c1)OCCO2)Oc1ccccc1` (stereo not given), for which the inhibition is inactive: 0.61%.
Next, `CCOP(C)(=S)SCC(=O)NC(C)(CC)C(=O)O` (stereo not given): inactive: -2.66%; `CP(=O)(Nc1ccc(SC(F)(F)F)cc1)Oc1ccc(F)cc1` (stereo not given): inactive: 0.38%; `Cc1c(C(c2ccc3c(c2)OCO3)c2c(C)n(C)n(-c3ccccc3)c2=O)c(=O)n(-c2ccccc2)n1C.O=[N+]([O-])c1cc([N+](=O)[O-])c(O)c([N+](=O)[O-])c1`: inactive: -3.89%.
For `O=[N+]([O-])c1cc([N+](=O)[O-])c(NCC2CCS(=O)(=O)C2)c([N+](=O)[O-])c1` (stereo not given), the inhibition is inactive: -10.1%.
Regarding `Cc1cc(-c2cccc3ccccc23)c(C)cn1.O=[N+]([O-])c1cc([N+](=O)[O-])c(O)c([N+](=O)[O-])c1`, the inhibition is inactive: -3.09%.
`O=[N+]([O-])c1ccc(OP2(=O)COCCO2)cc1` (stereo not given): the inhibition was inactive: 2.6%.
Take `COc1ccc(NP(C)(=O)Oc2ccccc2OC)cc1` (stereo not given): the inhibition was inactive: 4.49%.
On to `CN(C)CCOC(=O)C(O)(c1ccccc1)C1CCCCC1` (stereo not given), for which the inhibition was inactive: 0.01%.
The value for `COc1ccc(OP(C)(=O)Nc2cccc(Br)c2)cc1` (stereo not given) was inactive: 0.33%.
